Experimental data: PubChem BioAssay AID1259414 (Drosophila RNAi Screening Center, 2018)
The deposit covers about 24,000 reagents; this is an unselected part of those with a known target gene and a result. Over the whole deposit, about 1,210 (5%) got an active call. 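Inactive calls also include excluded dsRNAs with several or no targets, genes unexpressed in JW18, and well A1, regardless of score.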 Names joined by + are all predicted targets of the reagent.

Purpose: 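Host factors increasing or decreasing Wolbachia levels in cultured fly cells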 (primary screen)
Cell system: Drosophila JW18 cells infected with Wolbachia
Reagent: long dsRNA against Drosophila genes, 0.25 µg dsRNA per well of a 384-well plate
Timing: 5 days
Challenge: cells persistently infected with Wolbachia before knock-down; no added drug
Detection: 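Imaged fluorescence in situ signal for Wolbachia 23S rRNA per DAPI-counted host cell, given as a robust z-score within each plate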
Scale: Wolbachia per cell robust z: higher = more Wolbachia per host cell than the plate typical
Hit rule: 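Hit when robust z is 1.5 or more, or -1.5 or less, in at least two of three replicates; excludes dsRNAs with several or no targets, genes not expressed in JW18 and well A1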

no.	gene knocked down	dsRNA	Wolbachia per cell robust z, rep 1	Wolbachia per cell robust z, rep 2	Wolbachia per cell robust z, rep 3	Outcome
1	Asx	DRSC23408	1.12	-1.77	0.491	inactive
2	su(Hw)	DRSC17074	-3.61	-6.49	-4.88	active
3	CG7884	DRSC20065	0.124	-3.06	-1.34	inactive
4	CG7884	DRSC25412	0.586	1.05	0.797	inactive
5	CG14332	DRSC14811	0.229	-0.419	0.491	inactive
6	CG4267	DRSC00102	-0.341	0.462	0.0233	inactive
7	CG4267	DRSC00647	0.9	0.399	-1.83	inactive
8	CG4267	DRSC28673	-0.825	0.583	-0.641	inactive
9	CG4267	DRSC29852	-1.26	0.289	-0.135	inactive
10	Taf3	DRSC17170	-0.334	-0.0987	-5.5	inactive
11	Taf3	DRSC29650	-1.53	-6.67	-0.693	active
12	dpr2	DRSC02370	-0.283	0.368	-0.561	inactive
13	dpr2	DRSC02371	-0.718	-0.391	-0.769	inactive
14	acj6	DRSC20304	0.146	0.399	-0.79	inactive
15	acj6	DRSC29003	0.907	0.867	-0.603	inactive
16	CG42266	DRSC21577	-1.23	0.3	0.789	inactive
17	CG42266	DRSC21957	-1.63	-1.43	-0.738	inactive
18	CG42266	DRSC29782	-1.11	-6.89	1.51	inactive
19	CG42266	DRSC39089	-2.58	0.0149	-0.816	inactive
20	CG6191	DRSC23127	0.994	0.543	0.957	inactive
21	CR34254	DRSC38834	0.512	-0.638	-0.391	inactive
22	ru	DRSC08258	-0.192	0.654	0.852	inactive
23	ru	DRSC28529	-0.0912	1.03	-0.844	inactive
24	CG4714	DRSC06883	0.318	-0.698	-0.129	inactive
25	CG11164	DRSC19392	0.545	0.926	0.656	inactive
26	CG18178	DRSC10302	-0.406	0.632	-0.377	inactive
27	CG31776	DRSC00716	-0.157	0.937	-1.22	inactive
28	CG6870	DRSC02998	-0.685	-0.659	1.55	inactive
29	CG6870	DRSC25586	-0.777	2.27	0.913	inactive
30	CG9008	DRSC01889	1.33	1.86	0.997	inactive
31	CG9008	DRSC26675	0.0931	-5.19	-0.512	inactive
32	Cpr67Fa2	DRSC10315	-0.27	-0.212	-1.03	inactive
33	Su(P)	DRSC11291	0.974	-1.28	0.718	inactive
34	Su(P)	DRSC29947	0.393	0.251	0.64	inactive

Records above called active:
gene knocked down	dsRNA	Wolbachia per cell robust z, rep 1	Wolbachia per cell robust z, rep 2	Wolbachia per cell robust z, rep 3	Outcome
su(Hw)	DRSC17074	-3.61	-6.49	-4.88	active
Taf3	DRSC29650	-1.53	-6.67	-0.693	active

Further records follow.
no.	gene knocked down	dsRNA	Wolbachia per cell robust z, rep 1	Wolbachia per cell robust z, rep 2	Wolbachia per cell robust z, rep 3	Outcome
35	CG8916	DRSC20120	-1.06	-2.32	-0.523	inactive
36	CG8306	DRSC07141	0.587	1.24	0.00455	inactive
37	CG8306	DRSC24656	-1.37	1.04	-1.77	inactive
38	dnr1	DRSC03948	-1.5	-0.642	-0.776	inactive
39	dnr1	DRSC04122	0.417	1.04	0.0838	inactive
40	dnr1	DRSC26101	-0.813	0.357	-0.857	inactive
41	CG10068	DRSC12508	-0.0689	1.24	-0.119	inactive
42	CG13086	DRSC02190	0.355	0.933	2.96	inactive
43	CG13086	DRSC27538	2.06	1.19	-0.331	inactive
44	Rnb	DRSC16325	0.681	1.54	0.735	inactive
45	Rnb	DRSC28764	-1.12	-0.601	-0.0953	inactive
46	Jig	DRSC14974	-1.39	-0.505	-0.504	inactive
47	Obp83ef	DRSC12268	-5.59	0.122	-0.861	inactive
48	Obp83ef	DRSC30027	-1.46	-1.2	-10.4	inactive
49	tld	DRSC17084	-3.65	-0.675	-0.382	inactive
50	CG43088	DRSC21407	0.862	0.491	1.35	inactive
51	CG43088	DRSC40545	-3.48	-1.31	-0.562	inactive
52	Hr3	DRSC07441	-1.62	0.0292	-1.11	inactive
53	Hr3	DRSC40767	0.659	1.21	-0.132	inactive
54	CG4853	DRSC06898	-2.37	-1.89	-0.0191	active
55	CG4853	DRSC28240	1.46	-0.757	0.321	inactive
56	Nna1	DRSC19404	-0.492	-1.15	-0.37	inactive
57	Nna1	DRSC19405	-5.68	-0.0727	-3.27	active
58	Nna1	DRSC26989	-0.138	-1.59	0.285	inactive
59	CG42691	DRSC40513	-0.0386	0.748	0.623	inactive
60	CG42691	DRSC41459	0.885	-1.46	-2.12	inactive
61	t-Grip91	DRSC01506	-1.19	-1.61	-1.31	inactive
62	CG8526	DRSC16438	-0.37	-0.776	-0.862	inactive
63	CG8526	DRSC26422	-0.76	-0.301	0.262	inactive
64	CG6933	DRSC10751	-2.34	0.0534	-0.131	inactive
65	stg1 + CG11566 (retired record)	DRSC20473	0.972	0.83	0.823	inactive
66	stg1 + CG11566 (retired record)	DRSC20481	-1.32	-1.69	-1.11	inactive
67	stg1 + CG11566 (retired record)	DRSC20483	0.624	0.566	0.418	inactive
68	CG32642	DRSC18959	-0.37	0.0582	-1.86	inactive
69	CG32642	DRSC27983	-1.71	-2.8	-0.151	inactive
